Results deposited as PubChem BioAssay AID624099 (ICCB-Longwood, 2012).

- Test: 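Knock-downs relieving repression by E2 of an HPV18 LCR luciferase reporter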 (primary screen)
- System: human C33A cervical carcinoma cells (HPV-negative) stably expressing BPV1 E2 and an HPV18 LCR luciferase reporter
- Knock-down reagent: siRNA pool against human genes, 40 nM
- Timing: 72 h
- Detection: 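HPV18 LCR reporter light per well, converted to plate-wise z-scores that exclude control wells, and averaged over triplicate plates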
- Reading the numbers: mean z-score and z-score: higher = stronger reporter signal, weaker E2 silencing
- Active means: 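Mean z ≥ 2 together with z ≥ 2 in two or more of the three replicates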
In all, the deposit lists about 21,000 reagents; shown is a random part of them. Over the whole deposit, 497 (2.4%) are marked active. 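Higher z means weaker E2 silencing; only reporter increases were scored, and knock-downs that hurt cell survival may mask genuine repressor factors.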 Unmarked entries are inactive. Reagents against one gene are numbered here.

How did the screen score USP48 (ubiquitin specific peptidase 48)?
mean z-score: 2.73 (active); z-score, replicate A: 3.12; z-score, replicate B: 2.03; z-score, replicate C: 3.05

Which result is listed for CACNA1G-AS1 (CACNA1G antisense RNA 1)?
mean z-score: -0.85; z-score, replicate A: -0.73; z-score, replicate B: -0.89; z-score, replicate C: -0.93

Which result is listed for G3BP2 (G3BP stress granule assembly factor 2)?
mean z-score: 0.07; z-score, replicate A: -0.12; z-score, replicate B: 0.17; z-score, replicate C: 0.18

With EXOG (exo/endonuclease G), what was measured?
mean z-score: 0.55; z-score, replicate A: 0.43; z-score, replicate B: 0.76; z-score, replicate C: 0.47

For HPF1 (histone PARylation factor 1), how do the results read?
mean z-score: 0.91; z-score, replicate A: 1.19; z-score, replicate B: 1.41; z-score, replicate C: 0.13

For PKD2L1, what was measured?
mean z-score: 0; z-score, replicate A: -0.01; z-score, replicate B: 0.16; z-score, replicate C: -0.16

For SRRM1 (serine and arginine repetitive matrix 1), what was measured?
mean z-score: 0.05; z-score, replicate A: 0.11; z-score, replicate B: 0.09; z-score, replicate C: -0.04

For MEPE (matrix extracellular phosphoglycoprotein), how do the results read?
mean z-score: -0.1; z-score, replicate A: -0.52; z-score, replicate B: 0.06; z-score, replicate C: 0.16

For RBM14 (RNA binding motif protein 14) #1, how do the results read?
mean z-score: 0.87; z-score, replicate A: 0.85; z-score, replicate B: 0.34; z-score, replicate C: 1.42

What did the screen give for RBM14 (RNA binding motif protein 14) #2?
mean z-score: 0.73; z-score, replicate A: 0.64; z-score, replicate B: 0.6; z-score, replicate C: 0.95

For CYP2E1 (cytochrome P450 family 2 subfamily E member 1), how do the results read?
mean z-score: 0.76; z-score, replicate A: 0.7; z-score, replicate B: 0.66; z-score, replicate C: 0.94

What is on record for UCHL5 (ubiquitin C-terminal hydrolase L5)?
mean z-score: -1.12; z-score, replicate A: -1.13; z-score, replicate B: -0.9; z-score, replicate C: -1.35

For RPL13AP24 (ribosomal protein L13a pseudogene 24), what does the deposit list?
mean z-score: 1.02; z-score, replicate A: 0.82; z-score, replicate B: 1.26; z-score, replicate C: 0.98

Which result is listed for CECR2 (CECR2 histone acetyl-lysine reader)?
mean z-score: 0.93; z-score, replicate A: 1.34; z-score, replicate B: 0.8; z-score, replicate C: 0.66

For EIF3G (eukaryotic translation initiation factor 3 subunit G), how do the results read?
mean z-score: -1.82; z-score, replicate A: -1.57; z-score, replicate B: -1.98; z-score, replicate C: -1.91

With C14orf39 (chromosome 14 open reading frame 39), what was measured?
mean z-score: 0.46; z-score, replicate A: 0.72; z-score, replicate B: 0.13; z-score, replicate C: 0.53

What is on record for SUMO1P1 (SUMO1 pseudogene 1)?
mean z-score: 1.42; z-score, replicate A: 1.68; z-score, replicate B: 1.24; z-score, replicate C: 1.33

For PLEKHG4B (pleckstrin homology and RhoGEF domain containing G4B), what does the deposit list?
mean z-score: 0.15; z-score, replicate A: 0.16; z-score, replicate B: 0.34; z-score, replicate C: -0.06

Entries above whose gene name starts with U or u:
USP48 (ubiquitin specific peptidase 48) — mean z-score = 2.73 (active); z-score, replicate A = 3.12; z-score, replicate B = 2.03; z-score, replicate C = 3.05
UCHL5 (ubiquitin C-terminal hydrolase L5) — mean z-score = -1.12; z-score, replicate A = -1.13; z-score, replicate B = -0.9; z-score, replicate C = -1.35

Continued.
For LRRC8D (leucine rich repeat containing 8 VRAC subunit D), what does the deposit list?
mean z-score: -1.51; z-score, replicate A: -1.79; z-score, replicate B: -1.63; z-score, replicate C: -1.1

What did the screen give for ZNF800 (zinc finger protein 800)?
mean z-score: 0.86; z-score, replicate A: 0.46; z-score, replicate B: 1.18; z-score, replicate C: 0.93

With MOCS2-DT (MOCS2 divergent transcript), what does the deposit list?
mean z-score: -0.47; z-score, replicate A: -0.6; z-score, replicate B: -0.37; z-score, replicate C: -0.43

How did the screen score CYP3A7 (cytochrome P450 family 3 subfamily A member 7)?
mean z-score: -0.59; z-score, replicate A: -0.6; z-score, replicate B: -0.82; z-score, replicate C: -0.34

With CMC1 (C-X9-C motif containing 1), how do the results read?
mean z-score: -1.04; z-score, replicate A: -0.94; z-score, replicate B: -1.16; z-score, replicate C: -1.03

What did the screen give for SEPTIN5 (septin 5)?
mean z-score: -0.87; z-score, replicate A: -0.95; z-score, replicate B: -0.87; z-score, replicate C: -0.79

Which result is listed for NDFIP1 (Nedd4 family interacting protein 1)?
mean z-score: 0.33; z-score, replicate A: 0.2; z-score, replicate B: 0.48; z-score, replicate C: 0.32

With ZNF555 (zinc finger protein 555), how do the results read?
mean z-score: -0.51; z-score, replicate A: 0.17; z-score, replicate B: -0.76; z-score, replicate C: -0.93

For CYGB (cytoglobin), what was measured?
mean z-score: 2; z-score, replicate A: 1.96; z-score, replicate B: 2.04; z-score, replicate C: 1.99
